{
  "source": "patent US9487476B2",
  "about": "“Catechol diethers as potent anti-HIV agents” (priority 2011, dated 2016)",
  "test_system": "MT-2 human T-cells",
  "experiment": "Cytotoxicity, inhibition of MT-2 cell growth",
  "assay_type": "cell-based",
  "settings": "Table 5, MT-2 cells",
  "data": [
    {"smiles": "Cc1cc(C#N)cc(C)c1Oc1nc(Nc2ccc(C#N)cc2)nc(N)c1Br", "note": "[etravirine]", "values": [
      {"measurement": "CC50", "result": 11, "unit": "µM"}
    ]}
  ]
}
